Results of unrelated studies side by side (data: NIAID ChemDB).

Shared fields: tests in culture; agent: HIV-1; endpoint: EC50

Conditions beyond the fields shown may differ between rows.

compound,cells,strain or isolate,conditions,mutations,result
CC[C@H]1[C@@H]2C[C@H]3[C@@H]4N(C)c5ccccc5[C@]45C[C@@H]([C@@H]2[C@H]5O)N3[C@@H]1O,MT-4,LAV,-,-,>10 µg/mL
Cc1cc(S(N)(=O)=O)ccc1NC(=O)COc1ccc(Cl)cc1C(=O)c1cc(Cl)cc(C#N)c1,HeLa,-,-,Y181C,0.0007 µM
CC(C)(C)NC(=O)[C@@H]1C[C@@H]2CCCC[C@@H]2CN1C[C@@H](O)[C@H](Cc1ccccc1)NC(=O)[C@H](CC(N)=O)NC(=O)c1ccc2ccccc2n1,MT-2,RF,-,PR-G48V I54V A71T V82A,0.16 µM
N#CCn1ccc(=O)n(Cc2cccc3ccccc23)c1=O,PBMC,IIIB,-,-,5.39 µM
Cc1cc(S(N)(=O)=O)ccc1NC(=O)COc1ccc(Cl)cc1C(=O)c1cc(C#N)cc([N+](=O)[O-])c1,HeLa,-,-,V106A,0.0231 µM
COC(=O)N[C@H](C(=O)N[C@@H](Cc1ccccc1)[C@@H](O)CN(Cc1ccc(-c2ccccn2)cc1)NC(=O)[C@@H](NC(=O)OC)C(C)(C)C)C(C)(C)C,PBMC,ERS104pre,-,L63P,0.0021 µM
CC(=O)c1cc(C#N)cc(C(=O)c2cc(Cl)ccc2OCC(=O)Nc2ccc(S(N)(=O)=O)cc2C)c1,HeLa,-,-,Y181C,0.0019 µM
C(=C\c1ccccc1)/CN1CCN(C(c2ccccc2)c2ccccc2)CC1,MT-4,LAV,-,-,>100 µg/mL
Cc1cn([C@H]2C=C[C@@H](CO)O2)c(=O)[nH]c1=O,Primary T lymphocytes,NL4-3,-,+Vpx,>5 µM
Nc1nc2c(ncn2[C@H]2CO[C@@H](CO)O2)c(=O)[nH]1,MT-2,-,-,RT-K65R,0.91 µM
O=C(CCCN1CCC(O)(c2ccc(Cl)cc2)CC1)c1ccc(F)cc1,MT-4,LAV,-,-,>10 µg/mL
N#CCn1ccc(=O)n(Cc2cccc(C#N)c2)c1=O,PBMC,IIIB,-,-,7.44 µM
O=C1Nc2ccc(Cl)cc2[C@@](C#CC2CC2)(C(F)(F)F)O1,MDM,NL4-3,-,-,0.071 µM
Cc1cc2c(cc1S(N)(=O)=O)S(=O)(=O)CCC2,MT-4,LAV,-,-,>100 µg/mL
CO[P@](=O)(c1cc(C)cc(/C=C/C#N)c1)c1c(C(N)=O)[nH]c2ccc(Cl)c(F)c12,MT-4,BH10,-,K103N,0.0003 µM
CC(=O)Nc1cc(C#N)cc(C(=O)c2cc(Cl)ccc2OCC(=O)Nc2ccc(S(N)(=O)=O)cc2C)c1,HeLa,-,-,Y181C,0.14 µM
Nc1nc(=O)n([C@@H]2CC[C@H](CO)O2)cc1F,MT-4,IIIB,-,-,0.2 µM
Cc1ccnc2c1NC(=O)c1cccnc1N2C1CC1,Jurkat cells,NL4-3,-,-,0.09 µM
CCCC[NH+]1[C@@H]2C[C@H](OC(=O)[C@H](CO)c3ccccc3)CC[C@H]1[C@H]1O[C@H]12,MT-4,LAV,-,-,>100 µg/mL
Nc1ccn([C@@H]2CC[C@H](CO)O2)c(=O)n1,HT4 + HT4 LacZ-1,RTMC (RT D67N K70R T215F K219Q),-,RT-D67N K70R T215F K219Q,4 µM
CN[C@@H](CS)C(=O)O,MT-4,LAV,-,-,>100 µg/mL
O=c1ccn(Cc2c(F)cccc2F)c(=O)n1Cc1c(F)cccc1F,PBMC,IIIB,-,-,41.7 µM
COC(=O)N[C@H](C(=O)N[C@@H](Cc1ccccc1)[C@@H](O)CN(Cc1ccc(-c2ccccn2)cc1)NC(=O)[C@@H](NC(=O)OC)C(C)(C)C)C(C)(C)C,MT-2,MN,-,-,<0.003 µM
Cc1cn([C@H]2C[C@H](N=[N+]=[N-])[C@@H](COP(=O)(O)O)O2)c(=O)[nH]c1=O,CEM + CEM TK-,IIIB,-,-,39 µM
CCOC(=O)c1cc(C#N)cc(C(=O)c2cc(Cl)ccc2OCC(=O)Nc2ccc(S(N)(=O)=O)cc2C)c1,HeLa,-,-,WTRVA,0.0009 µM
Cc1cc(C)nc(Cn2c(=O)ccn(Cc3c(F)cccc3F)c2=O)c1,PBMC,IIIB,-,-,6.4 µM
Nc1ccn([C@H]2CC[C@@H](CO)O2)c(=O)n1,MT-4,Clinical isolate,clinical isolate,ddI-resistant,0.65 µM
O=c1ccn(Cc2ccccc2)c(=O)n1-c1ccccc1,PBMC,IIIB,-,-,>216 µM
Cc1cc(S(N)(=O)=O)ccc1NC(=O)COc1ccc(Cl)cc1C(=O)c1cc(C#N)cc(C(=O)N2CCCC2)c1,HeLa,-,-,K103N,0.0855 µM
O=c1ccn(Cc2c(F)cccc2F)c(=O)[nH]1,PBMC,IIIB,-,-,>197 µM
CC(C)(C)NC(=O)[C@@H]1C[C@@H]2CCCC[C@@H]2CN1C[C@@H](O)[C@H](Cc1ccccc1)NC(=O)[C@H](CC(N)=O)NC(=O)c1ccc2ccccc2n1,MT-4,NL4-3,-,L10F M46I I54V V82A LPV resistant,0.025 µM
Cc1nnc(C(=O)NC(C)(C)c2nc(C(=O)NCc3ccc(F)cc3)c(O)c(=O)n2C)o1,MT-4,N119,-,+Vpx,0.004 µM
CNC(=O)c1cc(C#N)cc(C(=O)c2cc(Cl)ccc2OCC(=O)Nc2ccc(S(N)(=O)=O)cc2C)c1,HeLa,-,-,WTRVA,0.445 µM
CC(C)(CO)[C@@H](O)C(=O)NCCC(=O)NCCSSCCNC(=O)CCNC(=O)[C@H](O)C(C)(C)CO,MT-4,LAV,-,-,>10 µg/mL
Cc1cc(S(N)(=O)=O)ccc1NC(=O)COc1ccc(Cl)cc1C(=O)c1cc(C#N)cc(N(C)C)c1,HeLa,-,-,WTRVA,0.0006 µM
CN1CCN=C(c2ccccc2)c2cc(Cl)ccc21,MT-4,LAV,-,-,>100 µg/mL
COC(=O)Nc1cc(C#N)cc(C(=O)c2cc(Cl)ccc2OCC(=O)Nc2ccc(S(N)(=O)=O)cc2C)c1,HeLa,-,-,V106A,0.04 µM
CC(C)CN(C[C@@H](O)[C@H](Cc1ccccc1)NC(=O)O[C@H]1CO[C@H]2OCC(F)(F)[C@H]21)S(=O)(=O)c1ccc(N)cc1,MT-4,NL4-3,-,L10I G48V I54V A71V I84V L90M SQV resistant,0.046 µM

For reference, 3 entries again:

compound,cells,strain or isolate,conditions,mutations,result
O=c1ccn(Cc2c(F)cccc2F)c(=O)n1Cc1c(F)cccc1F,PBMC,IIIB,-,-,41.7 µM
Cc1cn([C@H]2C[C@H](N=[N+]=[N-])[C@@H](COP(=O)(O)O)O2)c(=O)[nH]c1=O,CEM + CEM TK-,IIIB,-,-,39 µM
CCOC(=O)c1cc(C#N)cc(C(=O)c2cc(Cl)ccc2OCC(=O)Nc2ccc(S(N)(=O)=O)cc2C)c1,HeLa,-,-,WTRVA,0.0009 µM

Blank or dashed fields: not listed here. ECn: concentration that inhibits the pathogen or its effect by n%.